HIV-1 5' UTR: effect of mutations on RNA dimer formation

From the data files of Ye et al. 2022, doi:10.1038/s41594-022-00746-2.

The 5' region of HIV-1 NL4-3 RNA (positions 1-437):
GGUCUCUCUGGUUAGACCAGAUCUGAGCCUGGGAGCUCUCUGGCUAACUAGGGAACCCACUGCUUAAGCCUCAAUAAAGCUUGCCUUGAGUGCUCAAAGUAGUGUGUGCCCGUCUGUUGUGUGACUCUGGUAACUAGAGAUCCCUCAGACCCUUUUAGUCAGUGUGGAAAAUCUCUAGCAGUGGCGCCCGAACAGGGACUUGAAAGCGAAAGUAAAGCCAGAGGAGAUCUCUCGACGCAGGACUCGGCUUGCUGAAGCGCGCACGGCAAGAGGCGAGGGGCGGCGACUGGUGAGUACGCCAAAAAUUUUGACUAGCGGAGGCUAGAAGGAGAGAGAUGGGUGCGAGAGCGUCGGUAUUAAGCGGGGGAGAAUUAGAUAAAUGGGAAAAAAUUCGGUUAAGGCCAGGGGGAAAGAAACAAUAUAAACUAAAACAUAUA

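Randomly mutated transcripts starting with one, two or three G (1G, 2G, 3G), capped or uncapped, were folded for 30 min at 37 °C. Monomer and dimer bands were cut from native gels after folding in high salt (300 mM KCl, 5 mM MgCl2) or low salt (40 mM KCl, 0.1 mM MgCl2). Mutation frequencies in the two bands give Kdimer.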

Scale: median log2 Kdimer over the changes at a position; positive = changes inhibit dimerization, negative = changes enhance it.
One numbering serves 1G, 2G and 3G.
A position is written with its base.

| position | 2G capped low-salt | 2G uncapped low-salt |
|---|---|---|
| A21 | -0.08 | -0.03 |
| U22 | -0.02 | 0.04 |
| C23 | 0.01 | -0.17 |
| U24 | -0.09 | -0.04 |
| G25 | -1.32 | -0.57 |
| A26 | -0.11 | -0.07 |
| G27 | -0.93 | -0.72 |
| C28 | -0.57 | -0.76 |
| C29 | -0.16 | -0.01 |
| U30 | -0.31 | -0.09 |
| G31 | -0.34 | -0.04 |
| G32 | -0.10 | -0.08 |
| G33 | -0.18 | -0.06 |
| A34 | -0.08 | 0.06 |
| G35 | -0.55 | -0.58 |
| C36 | -0.32 | -0.22 |
| U37 | -0.13 | -0.23 |
| C38 | 0.00 | -0.13 |
| U39 | 0.04 | -0.21 |
| C40 | 0.04 | 0.09 |
| U41 | -0.08 | -0.66 |
| G42 | -0.18 | -0.41 |
| G43 | -0.02 | -0.15 |
| C44 | -0.07 | 0.02 |
| U45 | -0.25 | -0.13 |
| A46 | -0.42 | -0.36 |
| A47 | 0.03 | -0.34 |
| C48 | -0.64 | -0.69 |
| U49 | -0.03 | -0.23 |
| A50 | 0.05 | -0.32 |
| G51 | -0.09 | -0.14 |
| G52 | 0.02 | 0.05 |
| G53 | -0.23 | 0.09 |
| A54 | -0.30 | -0.51 |
| A55 | 0.18 | 0.14 |
| C56 | -0.01 | 0.22 |
| C57 | 0.07 | -0.42 |
| C58 | 0.54 | 0.17 |
| A59 | 0.27 | 0.30 |
| C60 | 0.16 | 0.24 |
| U61 | 0.05 | 0.24 |
| G62 | 0.66 | 0.31 |
| C63 | 0.06 | 0.06 |
| U64 | 0.16 | 0.09 |
| U65 | 0.33 | 0.44 |
| A66 | -0.02 | -0.23 |
| A67 | 0.11 | 0.22 |